Experimental data: US9987200B2, “Activated micro-bubble based root canal disinfection” (SyACT, LLP, priority 2014, dated 2018)

Test: Diffusion of photosensitizing compound into dentin, tooth cross-sections (FIG. 2)

## CN(C)c1ccc2nc3ccc(=[N+](C)C)cc-3sc2c1 [methylene blue]
MB 100 micro-molar dissolved in the polyethylene glycol, ethanol and water mixture
  Penetration into the dentin: substantially better
MB 100 micro-molar mixed only in water
  Penetration into the dentin: very little penetration
MB in the PEG/ethanol/water carrier solution
  Penetration depth into the dentin: up to 2 mm
